Values joined by “and” are separate entries in the source; they are usually repeats but may differ in a detail not shown here. Equal entries are not always repeated.
Key:
[1] = ref [4]; cited from earlier work
[2] = biological target: wild-type gp120YU2 with V5 and hexahis tags (HIV-1 strain YU2); assay: SPR

## maraviroc
[1]
  upper respiratory tract infections: increased incidence of upper respiratory tract infections

## Hexahis-tagged 4-domain soluble CD4 (receptor)
[2]
  Kd: 79 nM and 22 nM
